Source: patent publication US20220195015A1, “Neutralizing anti- sars-cov-2 antibodies” (published 2022)
Where a chain is given by its changes, count along the chain named.

B1: C045 (antibody, V domains shown)
VH: EVQLVESGGGLVQPGGSLRLSCAASGFTFSTYSMNWVRQAPGKGLEWVSYISSSSSTIHYADSVKGRFTISRDNAKNSLYLQMNSLRDEDTAVYYCAREAHDGALTDYGDYLNWFDPWGQGTLVTVSS
VL: SYELTQPPSVSVAPGKTARITCGGTNIGSKNVHWYQQKPGQAPVLVIYYDNDRPSGIPERFSGSNSGNTATLTISRVEAGDEADYYCQVWDTTSDHFYWVFGGGTKLTVL
B2: C047 (antibody, V domains shown)
VH: QVQLQESGPGLVKPSETLSLTCTVSGGSISSTTYYWDWIRQSPGKGLEWIGSIFYTGITYYSPSLKSRVTISVDTSKNQFSLRLNSMTAADTAVYYCARRLRQLWFGPWFDPWGQGTLVTVSS
VL: QSALTQPPSASGSPGQSVTISCTGTRSDVGDYNYVSWYQQHPDKAPKLIIYEVTKRPSGVPDRFSGSKSGNTASLTVSGLQAEDEADYYCSSYAGSNNVMFGGGTKLTVL
B3: C710 (antibody, V domains shown)
VH: B2 VH with T23I, S30N, S67T
VL: B2 VL with Y51F, N97S
B4: C096 (antibody, V domains shown)
VH: EVQLVESGGGLVKPGGSLRLSCVASGFTFRNAWMNWVRQAPGKGLEWVGRIKANSDGGTIDYAEPVQGRFTISREDSRNSLYLQMNSLKTEDTAVYYCTTGPQYDDFGHSYIVDSWGPGTLVTVSS
VL: DIVMTQSPLSLPVTLGEPASISCRSSQSLLHSNGFHFLEWYLQKPGQSPQLLIYVGSNRASGVPDRFSGSGSGTDFTLKISRVEAEDVGVYYCMQTLQTPLTFGGGTKVEIK
B5: C706 (antibody, V domains shown)
VH: EVQLVESGGGLVKPGGSLRLSCAASGFTFSNVWMSWVRQAPGKGLEWVGRIKSKIDGGTTEYAAPVKGRFIISRDDSKNTLSLQMNSLKTEDTAVYYCTTDHGREPPVHWGQGTLVTVSS
VL: EIVLTQSPGTLSLSPGERASLSCRARQSVYSNYLAWYQHKSGQAPRLLFYGASSRATDIPDRFSASGSGTDFTLTISRLEPEDFAVYYCLQYGPSPTFGPGTRLEIK
B6: C707 (antibody, V domains shown)
VH: EVQLVESGGGLVKPGGSLRLSCAASGFTFSSYSMNWVRQAPGKGLAWVSSISSSNNIIYYADSVKGRFTISRDDAKDSLYLHMKSLRADDTAVYFCARVPSWAPYQLLPGPFDYWGQGILVTVSS
VL: IRMTQSPSSLSASVGDRVTITCQASQAIASYLSWYQHKPGRAPKLLIYDASNLEIGVPSRFSGSGSGTDFTFTISSLQSEDNATYYCQQYESLPGTFGGGTKVEIK
B7: C709 (antibody, V domains shown)
VH: QVQLVQSGAEVRKPGASVKVSCMASGYTFNTYDINWVRQGTGQGLEWMGWMNPNSGNTGHAQKFQGRVAMTVNTSMNTAYMELSSLRSEDTAVYYCARGADMLNVAVGADFDYWGQGTLVTVSS
VL: QSALTQPPSASGSPGQSVTISCTGTSSDVGGYNFVSWFQQHPGKAPKLMIYEVSKRPSGVPDRFSGSKSANTASLTVSGLQAEDEADYFCSSYAGSNNWVFGGGTKLTVL
B8: C708 (antibody, V domains shown)
VH: EVQLVESGGGLVQPGGSLRLSCAASGFSFSTYWMSWVRQAPGKGLEWVADIKQDGSEKYFVDSVKGRFTISRDNAKNSLYLHLNSLRAEDTAVYYCAREMAGSGNYYWFGYGMDVWGQGTTVTVSS
VL: IRMTQSPSSVSASVGDRVTITCRASQGISSWLAWYQQKPGKAPKLLIYAASSLQSGVPSRFSGSESGTDFTLTISSLQPEDFATYYCQQANSFPLTFGGGTKVEIK
B9: C703 (antibody, V domains shown)
VH: EVQLLESGGGLVQPGGSLRLSCAGSGFTFSHYALSWVRQAPGKGLEWVSCISGTGGNSHYADSVKGRFTSSRDNSKNILYLQMNSLRAEDTAVYFCAKGGDFWSGYLIPFDSWGQGTLVTVSS
VL: SYELTQSPSVSVAPGKTARITCGGDSIGSKNVHWYQQKPGQAPVLVMYYDNDRPSGIPERFSGYNSGNTATLSISRVEAGDEADYYCLVWDGSGDPWVFGGGTKLTVL
B10: C704 (antibody, V domains shown)
VH: VQLVESGGGVVQPGRSLRLSCAASGFTFSRYGMHWVRQAPGKGLEWVAVSSYDGSNEYYANSVKGRFTISRDNSKNTLYLQMNSLRAEDTAVYYCAKTGASYCGGDCPFHFDYWGQGTLVTVSS
VL: IRMTQSPSSLSASVGDRVTITCQASQDINNYLNWYQQKPGKAPKLLIYDASDLETGVPSRFSGGGSGTDFTFTISSLQPEDIATYYCQHYNNLPITFGQGTRLEIK
B11: C164 (antibody, V domains shown)
VH: EVQLVESGGGLVQPGGSLRLSCAASGFSVSTKYMTWVRQAPGKGLEWVSVLYSGGSDYYADSVKGRFTISRDNSKNALYLQMNSLRVEDTGVYYCARDSSEVRDHPGHPGRSVGAFDIWGQGTMVTVSS
VL: QSALTQPASVSGSPGQSITISCTGTSNDVGSYTLVSWYQQYPGKAPKLLIFEVTKRSSGISNRFSGSKSGNTASLTISGLQGEDEADYYCCSYAGASTFVFGGGTKLTVL
B12: C143 (antibody, V domains shown)
VH: B11 VH
VL: B11 VL with V53G
B13: C032 (antibody, V domains shown)
VH: EVQLVQSGAEVKKPGESLKISCKGSGYSFTSYWIGWVRQMPGKGLEWMGIIYPGDSDTRYSPSFQGQVTISADKSISTAYLQWSSLKASDTAMYYCARGVAVDWYFDLWGRGTLVTVSS
VL: QSVLTQPPSVSGAPGQRVTISCTGSSSNIGAGYDVHWYQQLPGTAPKLLIYGNSNRPSGVPDRFSGSKSGTSASLAITGLQAEDEADYYCQSYDSSLSALYVFGTGTKVTVL
B14: C520 (antibody, V domains shown)
VH: QVQLQQWGAGLLKPSETLSLTCAVFGGSFSGYYWGWIRQPPGKGLEWIAEINHSENSHYNPSLKSRVTISVDTFKNQFSLNLSSVTAADTALYYCVRRPRRYCSGDTCRGAFDIWGQGTMVTVSS
VL: DIQMTQSPSSLSASVGDRVTITCRASQDISNFLAWYQQKPGKVPSLLIYAASILQPGVPSRFSGSGSGTDFTLTITSLQPEDVATYYCQKYKIDPFTFGPGTKVDIK
B15: C522 (antibody, V domains shown)
VH: EVQLVESGGGLIQPGGSLRLSCAASEFIVSRNYMSWVRQAPGKGLEWVSVIYSGGSTFYADSVKGRFTISRDESKNTLYLQMNSLRAEDTAIYYCARDRGGGILDYWGQGTLVTVS
VL: DIQMTQSPSSLSASVGDRVTITCQASQDINIFLNWYQQKPGKAPKLLIYDASSLETGVPSRFSGSGSGTDFTFTISSLQPEDFATYYCQQYGNLPKYTFGQGTKLEIK
B16: C132 (antibody, V domains shown)
VH: QVQLQESGPGLVKPSGTLSLTCAVSGGSISSNNWWSCVRQPPGKGLEWIGEIYHSGSTNYNPSLKSRVTISVDKSKNQFSLKLSSVTAADTAVYYCARGGDTAMGPEYFDYWGQGTLVTVSS
VL: QSALTQPASVSGSPGQSITISCTGTSSDVGGYNYVSWYQQHPGKAPKLMIYDVSNRPSGVSNRFSGSKSGNTASLTISGLQAEDEADYYCSSYTSSSTLLFGGGTKLTVL

Target: SARS-CoV-2 spike (S) protein on pseudotyped HIV-1 reporter virus (SARS-CoV-2, UniProt P0DTC2 14-1254)
Assay: cell-based or functional assay

B1 and B2 cannot be ordered by “IC50 and IC90 [ng/ml] (one cell)” value: over 10000 ng/mL for the first, over 10000 ng/mL for the second.

B3 and B6 cannot be ordered by “IC50 and IC90 [ng/ml] (one cell)” value: over 10000 ng/mL for the first, over 10000 ng/mL for the second.

B10 and B14 cannot be ordered by “IC50 and IC90 [ng/ml] (one cell)” value: over 10000 ng/mL for the first, over 10000 ng/mL for the second.

First: B4
Second: B5
The “IC50” value of the first is 25-fold lower: 0.0802 µg/mL for the first, 2.03 µg/mL for the second.

B7 and B8 are within 1.5-fold of each other in “IC50” value: 0.407 µg/mL for the first, 0.489 µg/mL for the second.

Compared with B9, B11 is 11-fold lower in “IC50” value: 0.681 µg/mL for the first, 0.0593 µg/mL for the second.

Compared with B12, B13 is 4.4-fold lower in “IC50” value: 0.336 µg/mL for the first, 0.0757 µg/mL for the second.

Going from B15 to B16, the “IC50” value rises from 0.0206 µg/mL to 1.02 µg/mL (50-fold).

First: B4
Second: B5
The “IC90” value of the first is lower: 0.349 µg/mL for the first, over 10 µg/mL for the second.

Compared with B7, B8 is lower in “IC90” value: over 10 µg/mL for the first, 8.86 µg/mL for the second.

Going from B9 to B11, the “IC90” value falls from over 10 µg/mL to 0.811 µg/mL.

Going from B12 to B13, the “IC90” value falls from 3 µg/mL to 1.4 µg/mL (2.1-fold).

Compared with B15, B16 is higher in “IC90” value: 0.074 µg/mL for the first, over 10 µg/mL for the second.
